Anti-infective test results gathered from many reports (values: NIAID ChemDB through PubChem).

All rows: cytotoxicity tests; cells: HUMAN SPERM; endpoint: CC50

Conditions beyond the fields shown may differ between rows.

SMILES | result
COC(=O)[C@H](Cc1c[nH]c2ccccc12)NP(=O)(OC[C@H]1O[C@@H](N2C(=O)NC(=O)C(C)(Br)C2OC)C[C@@H]1N=[N+]=[N-])Oc1ccccc1 | 10 µM
COc1ccc(OC)c(CCNC(=S)Nc2ccc(Br)cn2)c1 | >500 µM
COC(=O)[C@H](C)NP(=O)(OC[C@H]1O[C@@H](n2cc(C)c(=O)[nH]c2=O)C[C@@H]1N=[N+]=[N-])Oc1ccc(F)cc1 | >300 µM
CC1(C)C2CCC(COCCNC(=S)Nc3ccc(Br)cn3)C1C2 | >500 µM
COC(=O)[C@H](C)NP(=O)(OC[C@H]1O[C@@H](N2C(=O)NC(=O)C(C)(Br)C2OC)C[C@@H]1N=[N+]=[N-])Oc1ccc(OC)cc1 | 29 µM
COC(=O)[C@H](C)NP(=O)(OC[C@H]1O[C@@H](N2C(=O)NC(=O)C(C)(Br)C2OC)C[C@@H]1N=[N+]=[N-])Oc1ccc(OC)cc1 | 24 µM
S=C(NCCc1cccs1)Nc1ccc(Br)cn1 | >500 µM
COC(=O)[C@H](CC(C)C)NP(=O)(OC[C@H]1O[C@@H](N2C(=O)NC(=O)C(C)(Br)C2OC)C[C@@H]1N=[N+]=[N-])Oc1ccc(Br)cc1 | >300 µM
COC(=O)[C@H](C)NP(=O)(OC[C@@H]1CC[C@H](N2C(=O)NC(=O)C(C)(Br)C2OC)O1)Oc1ccccc1 | 42 µM
COC(=O)[C@H](C)NP(=O)(OC[C@H]1O[C@@H](n2cc(C)c(=O)[nH]c2=O)C[C@@H]1N=[N+]=[N-])Oc1ccccc1 | >300 µM
S=C(NCCc1ccc(Cl)cc1)Nc1ccc(Br)cn1 | 160 µM
CCCCCCCCCc1ccc(OCCOCCOCCOCCOCCOCCOCCOCCOCCO)cc1 | 86 µM
COC(=O)[C@H](Cc1ccccc1)NP(=O)(OC[C@H]1O[C@@H](N2C(=O)NC(=O)C(C)(Br)C2OC)C[C@@H]1N=[N+]=[N-])Oc1ccccc1 | >300 µM
FC(F)(F)c1ccc(NC(=S)NCCN2CCCCC2)nc1 | 131 µM
COC(=O)[C@H](C)NP(=O)(OC[C@H]1O[C@@H](n2cc(C)c(=O)[nH]c2=O)C[C@@H]1N=[N+]=[N-])Oc1ccc(OC)cc1 | >300 µM
S=C(NCCc1ccccc1Cl)Nc1ccc(Br)cn1 | 70 µM
Fc1ccccc1CCNC(=S)Nc1ccc(Br)cn1 | 147 µM
S=C(NCCc1cccc(Cl)c1)Nc1ccc(Br)cn1 | >500 µM
S=C(NCCc1ccccc1Cl)Nc1ccc(Br)cn1 | 147 µM
COc1ccc(OC)c(CCNC(=S)Nc2ccc(C(F)(F)F)cn2)c1 | 276 µM
S=C(NCCC1=CCCCC1)Nc1ccc(Cl)cn1 | 57 µM

For reference, 2 entries again:

| SMILES | result |
|---|---|
| COC(=O)[C@H](Cc1ccccc1)NP(=O)(OC[C@H]1O[C@@H](N2C(=O)NC(=O)C(C)(Br)C2OC)C[C@@H]1N=[N+]=[N-])Oc1ccccc1 | >300 µM |
| CCCCCCCCCc1ccc(OCCOCCOCCOCCOCCOCCOCCOCCOCCO)cc1 | 86 µM |

CCn is the concentration with n% toxicity to the cells.